{
  "sequences": {"note": "Sequences of proteins named here, by UniProt entry; tags and fusion partners are left off. Residues count along the entry.", "UniProt O15393, whole entry": "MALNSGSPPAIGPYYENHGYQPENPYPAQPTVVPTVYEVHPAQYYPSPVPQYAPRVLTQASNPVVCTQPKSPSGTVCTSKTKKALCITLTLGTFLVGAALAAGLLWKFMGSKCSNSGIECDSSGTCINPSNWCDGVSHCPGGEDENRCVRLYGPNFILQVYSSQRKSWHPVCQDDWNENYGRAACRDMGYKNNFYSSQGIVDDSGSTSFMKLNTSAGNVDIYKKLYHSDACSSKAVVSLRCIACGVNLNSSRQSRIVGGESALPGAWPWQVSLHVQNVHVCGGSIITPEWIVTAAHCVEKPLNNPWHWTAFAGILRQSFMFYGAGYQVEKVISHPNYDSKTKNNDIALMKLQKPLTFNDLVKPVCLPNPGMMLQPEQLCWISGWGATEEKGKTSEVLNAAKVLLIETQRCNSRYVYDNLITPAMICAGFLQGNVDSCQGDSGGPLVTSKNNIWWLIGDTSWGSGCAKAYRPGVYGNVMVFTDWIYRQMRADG", "UniProt P00742, 235-488 limits assumed": "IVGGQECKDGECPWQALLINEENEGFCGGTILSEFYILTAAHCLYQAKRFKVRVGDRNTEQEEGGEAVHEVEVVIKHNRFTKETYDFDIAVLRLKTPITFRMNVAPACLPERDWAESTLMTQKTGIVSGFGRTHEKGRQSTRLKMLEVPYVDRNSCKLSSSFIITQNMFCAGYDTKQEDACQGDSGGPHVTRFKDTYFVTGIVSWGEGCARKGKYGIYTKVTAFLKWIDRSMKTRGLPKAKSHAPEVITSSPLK", "UniProt P00742, 41-179 partner limits assumed": "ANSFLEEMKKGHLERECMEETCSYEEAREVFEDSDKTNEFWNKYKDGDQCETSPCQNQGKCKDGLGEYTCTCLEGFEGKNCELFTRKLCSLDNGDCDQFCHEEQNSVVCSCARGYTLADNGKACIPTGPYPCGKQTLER", "UniProt Q9Y5Y6, whole entry": "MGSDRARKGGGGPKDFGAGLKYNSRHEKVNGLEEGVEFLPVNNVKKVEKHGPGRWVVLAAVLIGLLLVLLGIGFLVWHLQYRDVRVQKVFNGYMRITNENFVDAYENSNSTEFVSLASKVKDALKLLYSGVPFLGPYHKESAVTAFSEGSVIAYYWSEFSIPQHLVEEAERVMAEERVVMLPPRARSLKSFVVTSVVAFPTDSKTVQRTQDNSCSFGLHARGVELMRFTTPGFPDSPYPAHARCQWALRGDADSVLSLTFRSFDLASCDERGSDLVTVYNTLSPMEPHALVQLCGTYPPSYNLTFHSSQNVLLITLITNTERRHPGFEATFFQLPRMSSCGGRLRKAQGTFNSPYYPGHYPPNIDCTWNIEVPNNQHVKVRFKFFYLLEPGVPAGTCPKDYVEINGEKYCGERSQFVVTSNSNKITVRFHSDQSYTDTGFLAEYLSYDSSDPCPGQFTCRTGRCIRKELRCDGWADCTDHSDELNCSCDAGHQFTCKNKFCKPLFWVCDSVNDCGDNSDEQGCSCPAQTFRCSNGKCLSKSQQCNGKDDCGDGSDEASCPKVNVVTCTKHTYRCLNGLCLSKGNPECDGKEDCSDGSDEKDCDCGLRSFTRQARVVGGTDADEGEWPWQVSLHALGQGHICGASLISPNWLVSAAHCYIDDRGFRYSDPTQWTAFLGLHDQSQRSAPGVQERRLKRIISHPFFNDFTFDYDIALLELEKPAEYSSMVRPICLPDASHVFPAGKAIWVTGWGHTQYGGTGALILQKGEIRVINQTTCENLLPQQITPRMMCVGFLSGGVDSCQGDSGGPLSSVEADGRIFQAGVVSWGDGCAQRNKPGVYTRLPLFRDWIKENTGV"},
  "source": "paper PMC9270327",
  "about": "(Communications Biology, 2022)",
  "key": {"[1]": {"molecular_target": "cellular TMPRSS2 activity, Caco-2 cells (Homo sapiens, UniProt O15393)", "conditions": "for cellular protease activity on Caco-2 cells, Mean (Fig. 4a): normalized, 0 nM = 100"}, "[2]": {"system": "lentiviral pseudoparticles carrying SARS-CoV-2 Alpha (B.1.1.7) spike, Caco-2 cells", "test": "Pseudovirus inhibition assay, Alpha spike", "conditions": "for SARS-CoV-2 spike driven entry, Mean (0 nM = 100): Fig. 5b, Alpha spike pseudoparticles"}, "[3]": {"molecular_target": "recombinant human thrombin (Homo sapiens, UniProt P00734)", "test": "Enzyme inhibition assay with purified thrombin (Ki, dose-response)", "type": "biochemical"}, "[4]": {"system": "lentiviral pseudoparticles carrying SARS-CoV-2 Delta (B.1.617.2) spike, Caco-2 cells", "test": "Pseudovirus inhibition assay, Delta spike", "conditions": "for SARS-CoV-2 spike driven entry, Mean (0 nM = 100): Fig. 5d, Delta spike pseudoparticles"}, "factor Xa": {"molecular_target": "factor Xa (Homo sapiens, UniProt P00742)", "test": "Enzyme inhibition assay with purified factor Xa (Ki, dose-response)", "type": "biochemical", "conditions": "for factor Xa activity, Mean (Fig. 2d): normalized, 0 nM = 100"}, "[5]": {"molecular_target": "recombinant human matriptase (Homo sapiens, UniProt Q9Y5Y6)", "test": "Enzyme inhibition assay with purified matriptase (Ki, dose-response)", "type": "biochemical"}, "[6]": {"system": "lentiviral pseudoparticles carrying SARS-CoV-2 Beta (B.1.351) spike, Caco-2 cells", "test": "Pseudovirus inhibition assay, Beta spike", "conditions": "for SARS-CoV-2 spike driven entry, Mean (0 nM = 100): Fig. 5c, Beta spike pseudoparticles"}, "[7]": {"system": "SARS-CoV-2 Beta (B.1.351), Caco-2 cells", "test": "SARS-CoV-2 inhibition assay, VOC Beta (in-cell ELISA)", "conditions": "for SARS-CoV-2 infection, Mean (0 nM = 100): Fig. 6d, VOC Beta"}},
  "note": "Read-outs that look alike come from different tables or passages of the source.",
  "data": [
    {"smiles": "CC(=O)N[C@@H](Cc1c[nH]cn1)C(=O)N1CCC[C@H]1C(=O)NC(CCCNC(=N)N)C(=O)c1nc2ccccc2s1", "note": "(some centres unmarked)", "values": [
      {"measurement": "cellular protease activity on Caco-2 cells, Mean (Fig. 4a)", "setting": "[1]; 100 nM", "value": 32.8125},
      {"measurement": "cellular protease activity on Caco-2 cells, Mean (Fig. 4a)", "setting": "[1]; 1000 nM", "value": 15.625},
      {"measurement": "cellular protease activity on Caco-2 cells, Mean (Fig. 4a)", "setting": "[1]; 10000 nM", "value": 2.344},
      {"measurement": "cellular protease activity on Caco-2 cells, Mean (Fig. 4a)", "setting": "[1]; 100000 nM", "value": 2.865},
      {"measurement": "IC50", "setting": "[1]; read-out: IC50 Caco2, cell-mediated proteolysis of Boc-Gln-Ala-Arg-AMC, 30 min preincubation", "value": 45.5, "unit": "nM"},
      {"measurement": "SARS-CoV-2 spike driven entry, Mean (0 nM = 100)", "setting": "[2]; compound 3.2 nM", "value": 84.747},
      {"measurement": "SARS-CoV-2 spike driven entry, Mean (0 nM = 100)", "setting": "[2]; compound 16 nM", "value": 84.996},
      {"measurement": "SARS-CoV-2 spike driven entry, Mean (0 nM = 100)", "setting": "[2]; compound 80 nM", "value": 73.309},
      {"measurement": "SARS-CoV-2 spike driven entry, Mean (0 nM = 100)", "setting": "[2]; compound 400 nM", "value": 61.9645},
      {"measurement": "SARS-CoV-2 spike driven entry, Mean (0 nM = 100)", "setting": "[2]; compound 2000 nM", "value": 29.747},
      {"measurement": "SARS-CoV-2 spike driven entry, Mean (0 nM = 100)", "setting": "[2]; compound 10000 nM", "value": 5.316},
      {"measurement": "SARS-CoV-2 spike driven entry, Mean (0 nM = 100)", "setting": "[2]; compound 50000 nM", "value": 1.6355},
      {"measurement": "IC50", "setting": "[2]; read-out: IC50 pseudotyped lentivirus Alpha, Caco-2 cells, luciferase 2 days post transduction", "value": 486, "unit": "nM"},
      {"measurement": "Selectivity index Thrombin", "setting": "[3]; quotient Ki thrombin / Ki TMPRSS2", "value": 849},
      {"measurement": "Ki", "setting": "[3]; read-out: Ki Thrombin, 30 min preincubation, substrate D-Phe-Homopro-Arg-pNA", "value": 7220, "unit": "nM"},
      {"measurement": "SARS-CoV-2 spike driven entry, Mean (0 nM = 100)", "setting": "[4]; compound 3.2 nM", "value": 88.7367},
      {"measurement": "SARS-CoV-2 spike driven entry, Mean (0 nM = 100)", "setting": "[4]; compound 16 nM", "value": 86.7648},
      {"measurement": "SARS-CoV-2 spike driven entry, Mean (0 nM = 100)", "setting": "[4]; compound 80 nM", "value": 78.605},
      {"measurement": "SARS-CoV-2 spike driven entry, Mean (0 nM = 100)", "setting": "[4]; compound 400 nM", "value": 63.5363},
      {"measurement": "SARS-CoV-2 spike driven entry, Mean (0 nM = 100)", "setting": "[4]; compound 2000 nM", "value": 31.2727},
      {"measurement": "SARS-CoV-2 spike driven entry, Mean (0 nM = 100)", "setting": "[4]; compound 10000 nM", "value": 6.7},
      {"measurement": "SARS-CoV-2 spike driven entry, Mean (0 nM = 100)", "setting": "[4]; compound 50000 nM", "value": 0.8724},
      {"measurement": "IC50", "setting": "[4]; read-out: IC50 pseudotyped lentivirus Delta, Caco-2 cells, luciferase 2 days post transduction", "value": 610, "unit": "nM"},
      {"measurement": "factor Xa activity, Mean (Fig. 2d)", "setting": "factor Xa; 0.02 nM", "value": 108.286},
      {"measurement": "factor Xa activity, Mean (Fig. 2d)", "setting": "factor Xa; 0.04 nM", "value": 93.9225},
      {"measurement": "factor Xa activity, Mean (Fig. 2d)", "setting": "factor Xa; 0.2 nM", "value": 100.182},
      {"measurement": "factor Xa activity, Mean (Fig. 2d)", "setting": "factor Xa; 2 nM", "value": 107.458},
      {"measurement": "factor Xa activity, Mean (Fig. 2d)", "setting": "factor Xa; 20 nM", "value": 86.9235},
      {"measurement": "factor Xa activity, Mean (Fig. 2d)", "setting": "factor Xa; 200 nM", "value": 69.797},
      {"measurement": "factor Xa activity, Mean (Fig. 2d)", "setting": "factor Xa; 10000 nM", "value": 11.418},
      {"measurement": "factor Xa activity, Mean (Fig. 2d)", "setting": "factor Xa; 100000 nM", "value": 11.0497},
      {"measurement": "Selectivity index Factor Xa", "setting": "factor Xa; quotient Ki factor Xa / Ki TMPRSS2", "value": 38.9},
      {"measurement": "Ki", "setting": "factor Xa; read-out: Ki Factor Xa, 30 min preincubation, substrate Bz-Ile-Glu-Gly-Arg-pNA", "value": 331, "unit": "nM"},
      {"measurement": "Selectivity index Matriptase", "setting": "[5]; quotient Ki matriptase / Ki TMPRSS2", "value": 1.4},
      {"measurement": "Ki", "setting": "[5]; read-out: Ki Matriptase, 30 min preincubation, substrate Boc-Gln-Ala-Arg-AMC", "value": 11.5, "unit": "nM"},
      {"measurement": "SARS-CoV-2 spike driven entry, Mean (0 nM = 100)", "setting": "[6]; compound 3.2 nM", "value": 74.1565},
      {"measurement": "SARS-CoV-2 spike driven entry, Mean (0 nM = 100)", "setting": "[6]; compound 16 nM", "value": 60.683},
      {"measurement": "SARS-CoV-2 spike driven entry, Mean (0 nM = 100)", "setting": "[6]; compound 80 nM", "value": 61.0295},
      {"measurement": "SARS-CoV-2 spike driven entry, Mean (0 nM = 100)", "setting": "[6]; compound 400 nM", "value": 51.263},
      {"measurement": "SARS-CoV-2 spike driven entry, Mean (0 nM = 100)", "setting": "[6]; compound 2000 nM", "value": 21.222},
      {"measurement": "SARS-CoV-2 spike driven entry, Mean (0 nM = 100)", "setting": "[6]; compound 10000 nM", "value": 8.6885},
      {"measurement": "SARS-CoV-2 spike driven entry, Mean (0 nM = 100)", "setting": "[6]; compound 50000 nM", "value": 1.351},
      {"measurement": "IC50", "setting": "[6]; read-out: IC50 pseudotyped lentivirus Beta, Caco-2 cells, luciferase 2 days post transduction", "value": 141, "unit": "nM"},
      {"measurement": "SARS-CoV-2 infection, Mean (0 nM = 100)", "setting": "[7]; compound 32 nM", "value": 92.6748},
      {"measurement": "SARS-CoV-2 infection, Mean (0 nM = 100)", "setting": "[7]; compound 160 nM", "value": 84.2498},
      {"measurement": "SARS-CoV-2 infection, Mean (0 nM = 100)", "setting": "[7]; compound 800 nM", "value": 79.3268},
      {"measurement": "SARS-CoV-2 infection, Mean (0 nM = 100)", "setting": "[7]; compound 4000 nM", "value": 82.5645},
      {"measurement": "SARS-CoV-2 infection, Mean (0 nM = 100)", "setting": "[7]; compound 20000 nM", "value": 4.476},
      {"measurement": "SARS-CoV-2 infection, Mean (0 nM = 100)", "setting": "[7]; compound 100000 nM", "value": -2.262},
      {"measurement": "IC50", "setting": "[7]; read-out: IC50 SARS-CoV-2 Beta, Caco-2 cells, in-cell ELISA 2 days post infection", "value": 6980, "unit": "nM"}
    ]}
  ]
}
